Tests used:
IL-10 in human PBMC = assay type: cell-based
soluble CD28 (sCD28) = target: T1, soluble CD28 (sCD28) (Homo sapiens, UniProt P10747); conditions: at 37° C.; read-out: KD of sCD28 for sB7-2 reported by Collins et al.; cited from earlier work
T1 construct: comprise the extracellular 37-162, 19-152, 21-141, 24-167 and 20-239 amino acid, respectively, of the mature human ligands domain; purchased R&D Systems 342-CD; host or cells: mouse myeloma NS0 cells

B1: sB7-2: soluble recombinant B7-2 extracellular domain fused to His6-tagged Fc region of human IgG (R&D Systems 141-B2) (protein)
chain: LSGAAPLKIQAYFNETADLPCQFANSQNQSLSELVVFWQDQENLVLNEVYLGKEKFDSVHSKYMGRTSFDSDSWTLRLHNLQIKDKGLYQCIIHHKKPTGMIRIHQMNSELSVLANFSQPEIVPISNITENVYINLTCSSIHGYPEPKKMSVLLRTKNSTIEYDGVMQKSQDNVTELYDVSISLSVSFPDVTSNMTIFCILETDKTRLLSSPFSIELEDP
modifications: left off: a dimerising Fc or GST; small tags and cut ends
For B1, the “induction of IL-10 by the substance alone” value (IL-10 in human PBMC) is listed as “failed to induce IL-10 to levels comparable to those obtained in the presence of anti-CD3” and the Kd (soluble CD28 (sCD28)) is listed as 20 µM.
